Results taken from publication PMC11661604.

Target: native Semliki Forest virus (SFV) virion
Assay: SPR
Conditions: SFV immobilized to 2,500 RU on a CM5 chip by amine coupling; analyte 250-8000 nM; parent: 15.02 ± 3.49

Substance LA5-Fc (from UniProt P98155-1) S204A has a Kd of 15.9 µM.
